{
  "sequences": {"note": "Chains of the proteins cited; added tags and fusions are not shown. Residues count along the entry.", "UniProt P26663, 2420-3010 limits assumed": "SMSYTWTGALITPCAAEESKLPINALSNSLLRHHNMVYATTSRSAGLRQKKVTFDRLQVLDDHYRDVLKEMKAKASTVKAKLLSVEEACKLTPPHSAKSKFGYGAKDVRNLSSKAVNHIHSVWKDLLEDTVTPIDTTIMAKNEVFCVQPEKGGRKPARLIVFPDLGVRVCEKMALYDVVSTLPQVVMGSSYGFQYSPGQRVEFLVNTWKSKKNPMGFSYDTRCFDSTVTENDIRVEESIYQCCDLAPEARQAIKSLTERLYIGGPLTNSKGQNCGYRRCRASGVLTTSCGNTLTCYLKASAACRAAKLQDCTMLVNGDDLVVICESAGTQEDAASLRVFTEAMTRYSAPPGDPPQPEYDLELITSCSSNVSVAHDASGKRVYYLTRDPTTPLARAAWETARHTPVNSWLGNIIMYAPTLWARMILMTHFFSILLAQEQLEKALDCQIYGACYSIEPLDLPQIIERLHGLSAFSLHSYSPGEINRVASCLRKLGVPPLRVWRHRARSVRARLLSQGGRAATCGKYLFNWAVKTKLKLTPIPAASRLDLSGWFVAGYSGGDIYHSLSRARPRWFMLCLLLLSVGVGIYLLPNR"},
  "source": "patent US20030229053A1",
  "about": "“Compounds and methods for the treatment or prevention of flavivirus infections” (Shire BioChem Inc., priority 2001, published 2003)",
  "biological_target": "HCV NS5B RNA-dependent RNA polymerase (Hepatitis C virus genotype 1b, UniProt P26663)",
  "test": "In vitro RNA-dependent RNA polymerase assay (Assay 1), polyA/oligo dT, TCA precipitation",
  "assay_type": "biochemical",
  "details": "read-out: RNA pol Assay 1 IC50 (μm); polyA/oligo dT template/primer, 200 ng NS5B, 2 h at 22° C.",
  "experimental": "Purification of Recombinant NS5B Using Fast Protein Liquid Chromatography (FPLC):\nSoluble NS5B protein in the S3 fraction was diluted to lower the NaCl concentration to 300 mM, then it incubated batchwise with DEAE sepharose beads (Amersham-Pharmacia) for 2 hrs at 4° C., as described by Behrens et al. (1996). Unbound material was cleared by centrifugation for 15 min at 4° C., at 25,000 rpm using a SW41 rotor (Beckman). The supernatant was further diluted to lower the NaCl concentration to 200 mM and subsequently loaded, with a flow rate of 1 ml/min, on a 5 ml HiTrap® heparin column (Amersham-Pharmacia) connected to an FPLC® system (Amersham-Pharmacia). Bound proteins were eluted in 1 ml fractions, using a continuous NaCl gradient of 0.2 to 1 M, over a 25 ml volume. NS5B-containing fractions were identified by sodium dodecyl sulfate polyacrylamide gel electrophoresis (SDS-PAGE), followed by western blotting using the anti-NS5B antiserum at a dilution of 1:2000. […] Eluted fractions were analyzed by SDS-PAGE and western blotting. […]\nRdRp assays were conducted using the homopolymeric template/primer polyA/oligo dT. […] Incorporated radioactivity was quantified using a liquid scintillation counter (1450-Microbeta, Wallac). […]",
  "note": "Structures were worked out from names or drawings and are uncertain.",
  "data": [
    {"smiles": "Cc1cc(Cl)ccc1C(=O)N(Cc1ccc(-c2cccc(C(F)(F)F)c2)o1)[C@@H](Cc1ccccc1)C(=O)O", "values": [
      {"measurement": "IC50", "value": "< 5", "unit": "µM"}
    ]},
    {"smiles": "O=C(O)C1CCN(c2ncc(CN(C(=O)c3ccc(Cl)cc3Cl)[C@@H](Cc3ccccc3)C(=O)O)s2)CC1", "values": [
      {"measurement": "IC50", "value": "5 to 20", "unit": "µM"}
    ]}
  ]
}
